In patent US20030103987:

Key:
Arf1 = Arf1 (UniProt P84077)
H-Ras = H-Ras (UniProt P01112)
RhoA = RhoA (UniProt P61586)
Rac1 = Rac1 (UniProt P63000)
Cdc42 = Cdc42 (UniProt P60953)

Clostridium sordellii lethal toxin (LT)
LT catalysed glucosylation (UDP-[14C]Glc incorporation) (Arf1): no incorporation of glucose catalyzed by LT could be found on Arf1
LT catalysed glucosylation (UDP-[14C]Glc incorporation, SDS-PAGE, phosphorimage) (H-Ras): H-Ras, Rap2, Ral and Rac1 were substrates for LT catalysed glucosylation
LT catalysed glucosylation (UDP-[14C]Glc incorporation, SDS-PAGE, phosphorimage) (RhoA): RhoA, Cdc42 and Rab6 were not modified "in vitro" by LT
LT catalysed glucosylation (UDP-[14C]Glc incorporation, SDS-PAGE, phosphorimage) (Rac1): H-Ras, Rap2, Ral and Rac1 were substrates for LT catalysed glucosylation
LT catalysed glucosylation (UDP-[14C]Glc incorporation, SDS-PAGE, phosphorimage) (Rap2): H-Ras, Rap2, Ral and Rac1 were substrates for LT catalysed glucosylation
LT catalysed glucosylation (UDP-[14C]Glc incorporation, SDS-PAGE, phosphorimage) (Rab6): RhoA, Cdc42 and Rab6 were not modified "in vitro" by LT
LT catalysed glucosylation (UDP-[14C]Glc incorporation, SDS-PAGE, phosphorimage) (Cdc42): RhoA, Cdc42 and Rab6 were not modified "in vitro" by LT
